Data as given in article PMC7915185 (Molecules, 2021).

Protein sequences, listed by entry. Tags and fused reporters are not part of them. Residues count along the entry.
UniProt P03454, 18-565: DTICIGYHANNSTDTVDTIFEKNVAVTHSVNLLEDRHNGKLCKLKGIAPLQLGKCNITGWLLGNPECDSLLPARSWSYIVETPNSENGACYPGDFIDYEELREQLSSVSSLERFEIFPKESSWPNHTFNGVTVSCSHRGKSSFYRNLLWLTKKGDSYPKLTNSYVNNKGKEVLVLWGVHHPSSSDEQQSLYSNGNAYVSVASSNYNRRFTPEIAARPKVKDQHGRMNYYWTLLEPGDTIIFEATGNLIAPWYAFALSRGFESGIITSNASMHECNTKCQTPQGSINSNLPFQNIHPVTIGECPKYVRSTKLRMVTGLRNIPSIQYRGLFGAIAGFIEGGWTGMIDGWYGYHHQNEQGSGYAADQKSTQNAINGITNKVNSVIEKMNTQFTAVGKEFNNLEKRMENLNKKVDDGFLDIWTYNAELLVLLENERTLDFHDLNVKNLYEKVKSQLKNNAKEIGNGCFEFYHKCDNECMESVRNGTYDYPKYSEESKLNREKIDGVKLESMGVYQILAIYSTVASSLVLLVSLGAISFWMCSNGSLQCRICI

Target: T1, H1N1 (A/WSN/1933) hemagglutinin (HA) protein (Influenza A virus, UniProt P03454)
T1 construct: purchased Sino Biological Inc. (Beijing, China)
Assay type: binding, influenza virus H1N1 (A/WSN/1933)
Conditions: pH 7.4

Substance: Sialylglycopeptide [SGP]
- thermodynamic dissociation constant KD: no affinity
